Data from patent publication US11473074.

Biological target: collagenase II from C. histolyticum

B1: neutral protease from C. histolyticum, isolated from the HIC CIP water wash of the collagenase manufacturing process (protein)
chain: QATHAQVRGVNSSGEHKILNGMFENGRYFLADSTRPSNGYILTYDANNQEYGFPGSLFSNLTGIFDSDRQKAGVDAHHNLTQVYDYYKNVLNRDSFDGKGASIISSVHVGNNLNNAFWNGRQILFGDGDGVTFSNLAKCLEVTAHEFTHAVTQSTAGLEYRFQSGALNEAFSDILGIAVHSDPNDWEIGEDIYTPNVAGDALRSMSNPRLYRQPDHMKDYLYWDYSMDKGGVHYNSGIPNKAAYLMGKEVGKDSMAKIYYHALVNYLTPQSTFEDARNAVVSSAIDLHGENSKEHKLAIKSWADVGVGEEAVR
  proteolytic digestion, fragments seen by SDS-PAGE: The 96 kDa fragment was recreated by exposing AUX-II to the neutral protease
